{"source": "the supplement of paper PMC9931576", "binders": {"B1": {"name": "BD56-1666 (protein)", "chain 1": "QVQLQESGPGLVRPSGTLSLACAVSGASISSVNWWSWVRQPPGRGLEWIGRIYHSGSTTYNPSLRSRITMSVDKSRNHFSLTLTSVTAADTAVYYCAKVDDYRLNYFDYWGQGILVTVSS", "chain 2": "SYVLSQPPSVAVAPGQTARITCGGNNIGGKSVHWYQQKSGQAPVLVVSDDNDRPSGIPERFSGSNSGNTATLTISKVEAGDEADYYCQVWDSSSEHVVFGGGTKLTVL"}, "B2": {"name": "BD56-1621 (protein)", "chain 1": "EVQLVESGGGLVKPGGSLRLSCAASGFTFITYTMNWVRQAPGQGLEWVSSISSSNRYIYYADSVKGRFTISRDNAKNSLYLRMSSLRAEDTAVYYCARVVAVDAPDDYYYFYGMDVWGQGTTVTVSS", "chain 2": "SYELTQPPSVSVSPGQTARITCSGDAFPRQYAYWYKQKPGQAPVLVIYKDTERPSGIPERFSGSNSGTTVTLTISGVQAEDEADYYCQSADRSGTYVLFGGGTKLTVL"}, "B3": {"name": "BD56-1637 (protein)", "chain 1": "QVRLVQSGAEVKKPGSSVKVSCKASGGTFSSYTINWVRQAPGQGLEWMGRIIPILDIADYAQKFQGRVTITADKSTSTAYMELISLRSEDTAMYYCARDASDCTSTNCFDYWGQGTLVTVSS", "chain 2": "QSVLTQPPSVSGAPGQRVTISCTGSNSNIGAGYDVHWYQQLPGTPPKLLIYVNSNRPSGVPDRFSGSKSGTSASLAITGLQAEDEADYYCQSYDSSLSGPVFGGGTKLTVL"}, "B4": {"name": "BD56-1650 (protein)", "chain 1": "QVQLVQSGAVLKKPGSSVKVSCKASGGSFSTNTITWVRQAPGQGLEWMGRIFPVLGVANYAQQFQGRVTITADKSTSTAYMELNRLRSEDTAEYYCAREPPNYCTRTICFDYWGQGTLVTVSS", "chain 2": "B3 chain 2 with Q40R, P45A, V52D, S54T, E83A, S96T, G99D, P100S"}, "B5": {"name": "BD56-1668 (protein)", "chain 1": "QVQLVQSGAEVKKPGSSVKVSCKASGGTFSSYTIAWVRQAPGQGLEWMGRIIPFLAVADYAAQLQGRVSITADKSTSTAYMELSSLRSEDTAVYFCALARGYSGSGSSYYFDSWGLGTLVTVSS", "chain 2": "B3 chain 2 with T5A, N26S, G43S, P45A, K47R, V52A, S54N, E83G, P100S"}, "B6": {"name": "COV2-2760 (protein)", "chain 1": "QVTLRESGPALVKPTQTLTLTCTFSGFSLSTSGLCVSWIRQPPGKALEWLARIDWDDDKYYNTSLRTRLTISKDTSKNQVVLTMTNMDPVDTATYYCARATTFFYGMDVWGQGTTVTVSS", "chain 2": "QSVLTQPPSASGTPGQRVTISCSGSRYNIGSNYVYWYQQLPGTAPRLLIYSNNQRPSGVPDRFSGSKSGTSASLAISGLRSEDEADYYCAAWDDSLSGLIFGGGTKLTV"}, "B7": {"name": "BD56-1623 (protein)", "chain 1": "QLQLQESGPGLVKPSATLSLTCTVSGGFISSSTYYWGWIRQPPGKGLEWIASFFYTGTTFYNPSLKSRLTISVDTSRNHFSVKLISVTAADTAVYYCARHGTRLAVADSFDSWGQGTLVTVSS", "chain 2": "QSVLTQPPSVSGAPGQRVTISCTGSSSNIGAGFDVHWYRQLPGTAPKLLIYGNNIRPSGVPDRFSGSKSGTSASLAITGLQADDEGNYYCQSFDNSLSVWVFGGGTKLTVL"}, "B8": {"name": "BD56-1652 (protein)", "chain 1": "EVQLVESGGGLVQPGRSLRLSCAASGFTFEDSAMHWVRQVPGKGLEWVSGMSRNSATIGYADSVKGRFIISRDNAKNSLYLQMYSLRLEDTAMYYCAKDMGSAIGPAGTEGMDVWGPGTTVTVSS", "chain 2": "SYVLTQPPSVSVAPGKTARITCGGNNIGRRSVHWYQQRPGQAPVLVVNDDSDRPSGIPERFSGSNSGNTATLTISRVEAGDEADYYCQVWDSTFDQVVFGGGTKLTVL"}, "B9": {"name": "BD56-1638 (protein)", "chain 1": "QVQLVESGGGVVQPGRSLRLSCAASGFTFSTYGMHWVRQAPGTGLEWVTFISDDENKKYYIDSVKGRFTISRDNSKSTLYLQMNSLRPEDTAVYYCAKDPGFCSSTRCQTQDYFDYWGQGTLVTVSS", "chain 2": "SYVLTQPPSVSVAPGKTARVTCGGNNIGSKSVHWYQQKPGQAPVLVIFYDSDRPSGIPERFSGSNSGNTATLTISRVEAGDEADYYCQVWDGSTDHPWVFGAGTKLTVL"}, "B10": {"name": "BD56-1680 (protein)", "chain 1": "QVQLVQSGAEVKKPGSSVKVSCKASGGTFSSDALSWVRQAPGQGLEWMGTIIPIFGTTNYAQKFRARITITTDDSTSTAYMELSSLKSEDTAMYYCAKDIVVGPLYGMDVWGQGTTVTVSS", "chain 2": "DIQMTQSPSSLSASVGDRVTITCRTSQSIGTFLNWYHQKPGKAPKLLIYGASSLESGVPSRFSGTGSGTDFTLTISSLQPEDFATYYCQQSYTARTFGQGTRVEVK"}, "B11": {"name": "COV2-2268 (protein)", "chain 1": "QITLKESGPTLVKPTQTLTLTCTFSGFSLSTSGVGVGWIRQPPGKALEWLALIYWDDDKRYSPSLKSRLSITKDTSKNQVVLTMTNMDPVDTGTYYCARHQIVVLFDMWGQGTRVTVSS", "chain 2": "QSALTQPASVSGSPGQSITISCTGTGSDVGGSNYVSWYQQHPGKAPKLMIYDVSNRPSGVSNRFSGSKSGNTASLTISGLQAEDEADYYCSSYTSSSTLVLFGGGTKLSVL"}, "B12": {"name": "BD56-1657 (protein)", "chain 1": "EVQLVESGGGLVQPGRSLRLSCAASGLNFEDYAMHWVRQAPGKGLEWVSGISWNSGTIGYADSVQGRFIISRDNAKNSLYLQMIRLRPEDTALYYCAKDISAGNYPRPGERGPGFNIWGQGTMVTVSS", "chain 2": "QSALTQPASVSGSPGQSITISCTGTSSDVGGYNYVSWYQQHPGKAPKLMIYDVANRPSGVSNRFSGSKSGNTASLTISGLQAEDEADYFCTSYTSSSTVVFGGGTKLTVL"}}, "note": "Substitutions are numbered along the chain they refer to. Human monoclonal antibodies against the spike receptor-binding domain (heavy:light variable regions). IC50 against pseudoviruses bearing the spike of naturally observed variants; lower = stronger; >10 µg/ml means not reached at the top dose. No active / inactive call. The stated detection limit is 0.0005 µg/ml; values near or below 0.001 µg/ml lie at the floor of the assay."}
{"target": "SARS-CoV-2 Omicron BA.1 spike pseudovirus", "experiment": "pseudovirus neutralization IC50; higher = weaker neutralization", "experimental": "(§1)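 Single-round VSV luciferase pseudovirus mixed with antibody dilutions for 1 h and put on Huh-7 cells for about a day; IC50 from the dose curve.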", "units": {"pseudovirus neutralization IC50": "µg/mL"}}
{"binder": "B1", "pseudovirus neutralization IC50": "> 10"}
{"binder": "B2", "pseudovirus neutralization IC50": 2.11}
{"binder": "B3", "pseudovirus neutralization IC50": 0.0561}
{"binder": "B4", "pseudovirus neutralization IC50": 0.0779}
{"binder": "B5", "pseudovirus neutralization IC50": 0.0212}
{"binder": "B6", "pseudovirus neutralization IC50": "> 10"}
{"binder": "B7", "pseudovirus neutralization IC50": "> 10"}
{"binder": "B8", "pseudovirus neutralization IC50": 0.00911}
{"binder": "B9", "pseudovirus neutralization IC50": "> 10"}
{"binder": "B10", "pseudovirus neutralization IC50": 0.0153}
{"binder": "B11", "pseudovirus neutralization IC50": "> 10"}
{"binder": "B12", "pseudovirus neutralization IC50": 0.0228}
{"target": "SARS-CoV-2 Omicron BA.2 spike pseudovirus", "experiment": "pseudovirus neutralization IC50; higher = weaker neutralization", "experimental": "as §1", "units": {"pseudovirus neutralization IC50": "µg/mL"}}
{"binder": "B1", "pseudovirus neutralization IC50": "> 10"}
{"binder": "B2", "pseudovirus neutralization IC50": 1.42}
{"binder": "B3", "pseudovirus neutralization IC50": 0.0732}
{"binder": "B4", "pseudovirus neutralization IC50": 0.086}
{"binder": "B5", "pseudovirus neutralization IC50": 0.0499}
{"binder": "B6", "pseudovirus neutralization IC50": "> 10"}
{"binder": "B7", "pseudovirus neutralization IC50": "> 10"}
{"binder": "B8", "pseudovirus neutralization IC50": 0.0162}
{"binder": "B9", "pseudovirus neutralization IC50": "> 10"}
{"binder": "B10", "pseudovirus neutralization IC50": 0.0173}
{"binder": "B11", "pseudovirus neutralization IC50": "> 10"}
{"binder": "B12", "pseudovirus neutralization IC50": 0.0348}
{"target": "SARS-CoV-2 Omicron BA.2.75 spike pseudovirus", "experiment": "pseudovirus neutralization IC50; higher = weaker neutralization", "experimental": "as §1", "units": {"pseudovirus neutralization IC50": "µg/mL"}}
{"binder": "B1", "pseudovirus neutralization IC50": "> 10"}
{"binder": "B2", "pseudovirus neutralization IC50": 2.71}
{"binder": "B3", "pseudovirus neutralization IC50": 0.0785}
{"binder": "B4", "pseudovirus neutralization IC50": 0.0446}
{"binder": "B5", "pseudovirus neutralization IC50": 0.0473}
{"binder": "B6", "pseudovirus neutralization IC50": "> 10"}
{"binder": "B7", "pseudovirus neutralization IC50": "> 10"}
{"binder": "B8", "pseudovirus neutralization IC50": 0.00817}
{"binder": "B9", "pseudovirus neutralization IC50": "> 10"}
{"binder": "B10", "pseudovirus neutralization IC50": 0.0409}
{"binder": "B11", "pseudovirus neutralization IC50": "> 10"}
{"binder": "B12", "pseudovirus neutralization IC50": 0.0337}
{"target": "SARS-CoV-2 Omicron BA.5 spike pseudovirus", "experiment": "pseudovirus neutralization IC50; higher = weaker neutralization", "experimental": "as §1", "units": {"pseudovirus neutralization IC50": "µg/mL"}}
{"binder": "B1", "pseudovirus neutralization IC50": "> 10"}
{"binder": "B2", "pseudovirus neutralization IC50": 0.949}
{"binder": "B3", "pseudovirus neutralization IC50": 3.05}
{"binder": "B4", "pseudovirus neutralization IC50": 2.75}
{"binder": "B5", "pseudovirus neutralization IC50": 4.44}
{"binder": "B6", "pseudovirus neutralization IC50": "> 10"}
{"binder": "B7", "pseudovirus neutralization IC50": "> 10"}
{"binder": "B8", "pseudovirus neutralization IC50": 0.123}
{"binder": "B9", "pseudovirus neutralization IC50": "> 10"}
{"binder": "B10", "pseudovirus neutralization IC50": 1.26}
{"binder": "B11", "pseudovirus neutralization IC50": "> 10"}
{"binder": "B12", "pseudovirus neutralization IC50": 1.29}
{"target": "SARS-CoV-2 Omicron BQ.1.1 spike pseudovirus", "experiment": "pseudovirus neutralization IC50; higher = weaker neutralization", "experimental": "as §1", "units": {"pseudovirus neutralization IC50": "µg/mL"}}
{"binder": "B1", "pseudovirus neutralization IC50": "> 10"}
{"binder": "B2", "pseudovirus neutralization IC50": 2.91}
{"binder": "B3", "pseudovirus neutralization IC50": "> 10"}
{"binder": "B4", "pseudovirus neutralization IC50": "> 10"}
{"binder": "B5", "pseudovirus neutralization IC50": "> 10"}
{"binder": "B6", "pseudovirus neutralization IC50": "> 10"}
{"binder": "B7", "pseudovirus neutralization IC50": "> 10"}
{"binder": "B8", "pseudovirus neutralization IC50": "> 10"}
{"binder": "B9", "pseudovirus neutralization IC50": "> 10"}
{"binder": "B10", "pseudovirus neutralization IC50": "> 10"}
{"binder": "B11", "pseudovirus neutralization IC50": "> 10"}
{"binder": "B12", "pseudovirus neutralization IC50": "> 10"}
{"target": "SARS-CoV-2 Omicron XBB spike pseudovirus", "experiment": "pseudovirus neutralization IC50; higher = weaker neutralization", "experimental": "as §1", "units": {"pseudovirus neutralization IC50": "µg/mL"}}
{"binder": "B1", "pseudovirus neutralization IC50": "> 10"}
{"binder": "B2", "pseudovirus neutralization IC50": 2.41}
{"binder": "B3", "pseudovirus neutralization IC50": 7.36}
{"binder": "B4", "pseudovirus neutralization IC50": "> 10"}
{"binder": "B5", "pseudovirus neutralization IC50": "> 10"}
{"binder": "B6", "pseudovirus neutralization IC50": "> 10"}
{"binder": "B7", "pseudovirus neutralization IC50": "> 10"}
{"binder": "B8", "pseudovirus neutralization IC50": "> 10"}
{"binder": "B9", "pseudovirus neutralization IC50": "> 10"}
{"binder": "B10", "pseudovirus neutralization IC50": 2.92}
{"binder": "B11", "pseudovirus neutralization IC50": "> 10"}
{"binder": "B12", "pseudovirus neutralization IC50": 3.62}
{"target": "SARS-CoV-2 early D614G spike pseudovirus", "experiment": "pseudovirus neutralization IC50; higher = weaker neutralization", "experimental": "as §1", "units": {"pseudovirus neutralization IC50": "µg/mL"}}
{"binder": "B1", "pseudovirus neutralization IC50": "> 10"}
{"binder": "B2", "pseudovirus neutralization IC50": 3.51}
{"binder": "B3", "pseudovirus neutralization IC50": 0.238}
{"binder": "B4", "pseudovirus neutralization IC50": 0.42}
{"binder": "B5", "pseudovirus neutralization IC50": 0.805}
{"binder": "B6", "pseudovirus neutralization IC50": "> 10"}
{"binder": "B7", "pseudovirus neutralization IC50": "> 10"}
{"binder": "B8", "pseudovirus neutralization IC50": 0.0192}
{"binder": "B9", "pseudovirus neutralization IC50": "> 10"}
{"binder": "B10", "pseudovirus neutralization IC50": 0.0463}
{"binder": "B11", "pseudovirus neutralization IC50": 0.509}
{"binder": "B12", "pseudovirus neutralization IC50": 0.0377}
